In patent US7432260B2, “Pyrimidine compounds” (Cyclacel Limted, priority 2002, dated 2008):

tested on: HIV-1 (clinical paediatric strain RoJo or WeJo) in human PBMCs; assay: Anti-HIV efficacy evaluation in fresh human PBMCs; format: cell-based; settings: therapeutic index: TC50/IC50
Procedure: Representative compounds of the present invention were tested for antiviral activity against HIV-1 in human peripheral blood mononuclear cells (PBMCs) using the clinical paediatric HIV strain RoJo or WeJo. PBMCs were cultured under conditions which promote cell survival and HIV replication. Antiviral activity was tested for from 6-9 log10 serial dilutions of a 100 μM compound stock solution in DMSO.
Fresh PBMCs, seronegative for HIV and HBV, were isolated from screened donors (Interstate Blood Bank, Inc. Memphis, Term.). Cells were pelleted/washed 2-3 times by low speed centrifugation and re-suspension in PBS to remove contaminating platelets. […] Banded PBMCs were gently aspirated from the resulting interface and subsequently washed with PBS by low speed centrifugation. After the final wash, cells were enumerated by trypan blue exclusion and re-suspended in RPMI 1640 supplemented with fetal bovine serum (FBS), and L-glutamine, Phytohemagglutinin (PHA-P, Sigma). The cells were allowed to incubate at 37° C. After incubation, PBMCs were centrifuged and resuspended in RPMI 1640 with FBS, L-glutamine, penicillin, streptomycin, gentamycin, and recombinant human IL-2 (R&D Systems, Inc). IL-2 is included in the culture medium to maintain the cell division initiated by the PHA mitogenic stimulation. PBMCs were maintained in this with bi-weekly medium changes until used in the assay protocol. Cells were kept in culture for a maximum of two weeks before being deemed too old for use in assays and discarded. Monocytes were depleted from the culture as the result of adherence to the tissue culture flask.
For the standard PBMC assay, PHA-P stimulated cells from at least two normal donors were pooled, diluted and plated in the interior wells of a 96-well round bottom microplate. Pooling of mononuclear cells from more than one donor was used to minimise the variability observed between individual donors, which results from quantitative and qualitative differences in HIV infection and overall response to the PHA and IL-2 of primary lymphocyte populations. Each plate contained virus/cell control wells (cells plus virus), experimental wells (drug plus cells plus virus) and compound control wells (drug plus media […], necessary for MTS monitoring of cytotoxicity). Since HIV-1 is not cytopathic to PBMCs, this allows the use of the same assay plate for both antiviral activity and cytotoxicity measurements. Test drug dilutions were prepared in microtiter tubes and each concentration was placed in appropriate wells using the standard format. A predetermined dilution of virus stock was placed in each test well (final MOI≅0.1). The PBMC cultures were maintained for seven days following infection at 37° C., 5% CO2. After this period, cell-free supernatant samples were collected for analysis of reverse transcriptase activity and/or HIV p24 content. Following removal of supernatant samples, compound cytotoxicity was measured by addition of MTS to the plates for determination of cell viability. Wells were also examined microscopically and any abnormalities were noted.
Reverse transcriptase activity assay: A microtiter plate-based reverse transcriptase (RT) reaction was utilised (Buckheit et al., AIDS Research and Human Retroviruses 7:295-302, 1991). Tritiated thymidine triphosphate (^3H-TTP, 80 Ci/mmol, NEN) was received in 1:1 dH2O:Ethanol at 1 mCi/mL. Poly rA:oligo dT template:primer (Pharmacia) was prepared as a stock solution, followed by aliquoting and storage at −20° C. […]

Row | Compound | TI
1 | Cc1nc(N)sc1-c1ccnc(Nc2ccc(N3CCOCC3)cc2)n1 [Compound 1, [4-(2-Amino-4-methyl-thiazol-5-yl)-pyrimidin-2-yl]-(4-morpholin-4-yl-phenyl)-amine] | 4.6
2 | CNc1nc(C)c(-c2ccnc(Nc3ccc(N4CCOCC4)cc3)n2)s1 [Compound 3, [4-(2-N-Methylamino-4-methyl-thiazol-5-yl)-pyrimidin-2-yl]-(4-morpholinophenyl)-amine] | >337
3 | CCNc1nc(C)c(-c2ccnc(Nc3ccc(N4CCOCC4)cc3)n2)s1 [Compound 4, [4-(2-Ethylamino-4-methyl-thiazol-5-yl)-pyrimidin-2-yl]-(4-morpholin-4-yl-phenyl)-amine] | 57
4 | Cc1nc(NC(=O)[C@H](N)[C@@H](C)O)sc1-c1ccnc(Nc2cccc([N+](=O)[O-])c2)n1 [Compound 15, (2R,3R)-2-Amino-3-hydroxy-N-{4-methyl-5-[2-(3-nitro-phenylamino)-pyrimidin-4-yl]-thiazol-2-yl}-butyramide] | 20
5 | Cc1nc(C)c(-c2ccnc(Nc3ccc(NC(=O)CN4CCCC4)cc3)n2)s1 [Compound 53, N-{4-[4-(2,4-Dimethyl-thiazol-5-yl)-pyrimidin-2-ylamino]-phenyl}-2-pyrrolidin-1-yl-acetamide] | 1.9
